Compound potency records, mixed from different reports. Data source: NIAID ChemDB in PubChem.

All rows: target-level tests; agent: HIV-1; target: Reverse transcriptase

a–b is a range or a potency band.

compound	strain	changes	read by	endpoint	value
CCN1c2ncc(CCOc3ccc(-c4cncnc4)cc3)cc2C(=O)N(C)c2cccnc21	IIIB	-	nucleotide incorporation / radiometric	IC50	<0.05 µM
COC(=O)NCCCCNc1nc(Cc2ccccc2)c(C)c(=O)[nH]1	-	RT-L100I	-	Ki	70 µM
c1ccc2c(c1)CCN(c1nn3c(-c4cscn4)nnc3c3ccccc13)C2	IIIB	-	RT activity / fluorescence	IC90	3.26 µM
CCN1c2ncc(CCOc3ccc(-c4ccc(C(=O)O)cc4)cc3C)cc2C(=O)N(C)c2cccnc21	IIIB	RT-K103N Y181C	nucleotide incorporation / radiometric	IC50	<0.05 µM
c1ccc2c(c1)CN(c1nn3c(C4CC4)nnc3c3ccccc13)C2	98US_MSC5016	-	RT activity / fluorescence	IC90	>100 µM
CCN1c2ncc(CCOc3ccc(C(=O)NN)cc3C)cc2C(=O)Nc2c(C)ccnc21	IIIB	RT-K103N Y181C	nucleotide incorporation / radiometric	fold resistance	>1
Cc1nnc2c3ccccc3c(N3CCc4cc(O)c(O)cc4C3)nn12	IIIB	-	RT activity / fluorescence	IC90	2.86 µM
CC(C)(C#Cc1ccc(NC(=O)CSc2nnnn2-c2cc(C(F)(F)F)cc(C3CC3)c2Cl)c(Cl)c1F)NC(=O)c1ccc[n+]([O-])c1	WT	-	PicoGreen / fluorescence	IC50	<1 µM
CCN1c2ncc(CCOc3ccc(-c4ccc(CC(=O)O)cc4Cl)cc3C)cc2C(=O)N(C)c2cccnc21	IIIB	RT-K103N Y181C	nucleotide incorporation / radiometric	fold resistance	1
FC(F)(F)Cc1nnc2c3ccccc3c(N3CCc4ccccc4C3)nn12	98US_MSC5016	-	RT activity / fluorescence	IC90	2.75 µM
CCc1cc(NCc2nc3c(C)ccc(C)c3o2)c(=O)[nH]c1C	-	RT-Y188C	nucleotide incorporation	fold resistance	5.8
CCN1c2ncc(CCOc3ccc(CC(C)C(=O)O)c4ccccc34)cc2C(=O)N(C)c2ccc(F)nc21	-	RT-Y188L	nucleotide incorporation / radiometric	fold resistance	>10
FC(F)(F)c1nnc2c3ccccc3c(N3CCc4ccccc4C3)nn12	98US_MSC5016	-	RT activity / fluorescence	IC90	24.3 µM
CC(C(=O)Nc1ccc(NC(=O)CSc2nnnn2-c2ccc(C(C)(C)C)cc2Cl)c(Cl)c1)c1ccccc1	-	RT-K103 Y181C	PicoGreen / fluorescence	IC50	<1 µM
CCN1c2ncc(CCOc3ccc(/C=C(\C)C(=O)O)c4ccccc34)cc2C(=O)Nc2c(C)cc(Cl)nc21	-	RT-Y188L	nucleotide incorporation / radiometric	fold resistance	>10
CCN1c2ncc(CCOc3ccc(-c4ccc(O)cc4)cc3C)cc2C(=O)N(C)c2cccnc21	IIIB	RT-K103N Y181C	nucleotide incorporation / radiometric	IC50	<0.05 µM
CN(C)c1ccc(CNC(=O)C(C)(C)C#Cc2ccc(NC(=O)CSc3nnnn3-c3ccc(C4CC4)cc3Cl)c(Cl)c2)cc1	WT	-	PicoGreen / fluorescence	IC50	<1 µM
CCN1c2ncc(CCOc3ccc(-c4cc(C(=O)O)on4)cc3)cc2C(=O)N(C)c2cccnc21	IIIB	RT-K103N Y181C	nucleotide incorporation / radiometric	fold resistance	>2
CC(C)(C)c1ccc(-n2nnnc2SCC(=O)Nc2ccc(C(=O)NCc3ccc(N)cc3)cc2Cl)c(Cl)c1	WT	-	PicoGreen / fluorescence	IC50	<1 µM
CCN1c2ncc(CCOc3ccc(-c4cccc(C(C)C(=O)O)c4)cc3C)cc2C(=O)N(C)c2cccnc21	IIIB	RT-K103N Y181C	nucleotide incorporation / radiometric	fold resistance	>1
COC(C(=O)Nc1ccc(NC(=O)CSc2nnnn2-c2ccc(C(C)(C)C)cc2Cl)c(Cl)c1)c1ccccc1	WT	-	PicoGreen / fluorescence	IC50	<1 µM
Cc1c(Cc2ccccc2)nc(NCCCCN)[nH]c1=O	-	-	-	Ki	97 µM
CC(C)(C)c1ccc(-n2nnnc2SCC(=O)Nc2ccc(NC(=O)Nc3ccccc3)cc2Cl)c(Cl)c1	-	RT-K103 Y181C	PicoGreen / fluorescence	IC50	<1 µM
Cc1nnc2c3ccccc3c(N3CCC4CCCCC4C3)nn12	IIIB	-	RT activity / fluorescence	IC90	31 µM
CC(C)(C)c1ccc(-n2nnnc2SCC(=O)Nc2ccc(C#CCN3CCCCC3)cc2Cl)c(Cl)c1	-	RT-K103 Y181C	PicoGreen / fluorescence	IC50	<1 µM
CCN1c2ncc(CCOc3ccc(CCC(=O)O)c4ccccc34)cc2C(=O)N(C)c2ccc(Cl)nc21	-	RT-Y188L	nucleotide incorporation / radiometric	IC50	>1 µM
CC(C)c1ccc(-n2nnnc2SCC(=O)Nc2ccc(C#CC(C)(C)C(=O)O)cc2Cl)c(Br)c1	-	RT-K103 Y181C	PicoGreen / fluorescence	IC50	<1 µM
CCN1c2ncc(CCOc3ccc(C(=O)NC(C)(C)CC(=O)O)cc3C)cc2C(=O)N(C)c2cccnc21	IIIB	-	nucleotide incorporation / radiometric	IC50	<0.05 µM
CC(C)(COc1ccc(NC(=O)CSc2nnnn2-c2ccc(C3CC3)cc2Cl)c(Cl)c1)C(=O)O	WT	-	PicoGreen / fluorescence	IC50	<1 µM
CCN1c2ncc(CCOc3ccc(NC(=O)CCC(=O)O)c4ccccc34)cc2C(=O)N(C)c2cccnc21	-	RT-Y188L	nucleotide incorporation / radiometric	fold resistance	>10
CC(NC(=O)COC(C)(C)C#Cc1ccc(NC(=O)CSc2nnnn2-c2ccc(C(C)(C)C)cc2Cl)c(Cl)c1)C(=O)O	-	RT-K103 Y181C	PicoGreen / fluorescence	IC50	<1 µM
Cc1c(Cc2ccccc2)nc(SCCCCO)[nH]c1=O	-	RT-L100I	-	Ki	73 µM
CC(C)(C#Cc1ccc(NC(=O)CSc2nnnn2-c2ccc(C3CC3)cc2Cl)c(Cl)c1)NC(=O)C1(C(=O)O)CC1	WT	-	PicoGreen / fluorescence	IC50	<1 µM
CCN1c2ncc(CCOc3ccc(C(=O)O)c4c3CCN(S(=O)(=O)N(C)C)C4)cc2C(=O)N(C)c2cccnc21	-	RT-V106A	nucleotide incorporation / radiometric	fold resistance	1–10

ICn: concentration for n% inhibition. Fold resistance has wild type as its base. An empty or dashed field is not shown. Rows are shuffled and stem from different studies.